The record followed here is patent US20230126310A1 (priority 2020, published 2023).

pIC50: −log10 of the molar value. Where a name gives a salt, the structure may show the parent alone.

The assay deals with SARS-CoV-2 (BetaCov/Belgium/GHB-03021/2020). The assay is described as follows: microbe, parasite or virus in culture. To be noted: Severe acute respiratory syndrome coronavirus 2, 120 h. In kind it is cell-based.

Consider `O=C(O)Cc1cccc(OCCCN(Cc2cccc(C(F)(F)F)c2Cl)CC(c2ccccc2)c2ccccc2)c1`, for which the negative-log IC50 (pIC50) was 4.56.

Consider `CC(=O)[C@]1(O)Cc2c(O)c3c(c(O)c2[C@@H](O[C@H]2C[C@H](N)[C@H](O)[C@H](C)O2)C1)C(=O)c1ccccc1C3=O` [Idarubicin HCl], for which the pIC50 is 4.23.

For orientation: pIC50 means the IC50 on a negative log10 scale, so that one unit is a factor of ten. The low end stands for a high IC50, the high end for a low IC50.
